Anti-infective test results gathered from many reports (values: NIAID ChemDB through PubChem).

All rows: tests in culture; species: HIV-1; read by: p24 / ELISA; measure: EC50

Neighbouring rows are from separate reports.

structure | strain or isolate | cells | changes | result
CCN(c1nc(F)ccc1NC(C)(C)C)C1CCN(C(=O)c2cc3cc(NC(=O)N4CCN(C)CC4)ccc3[nH]2)CC1 | IIIB | MT-2 | K112M K113E V128I | 0.0261 µM
Oc1cc2c(cc1O)C1Cc3ccc(O)c(O)c3CN1CC2 | IIIB | H9 | - | >2.5 µg/mL
CC(C)C1=C2[C@H]3CC[C@@H]4[C@@]5(C)CC[C@H](OC(=O)[C@H]6C[C@@H](C(=O)O)C6(C)C)C(C)(C)[C@@H]5CC[C@@]4(C)[C@]3(C)CC[C@@]2(c2ncc(-c3ccc(Cl)cc3)[nH]2)CC1=O | 92HT599 | MT-2 | - | <0.01 µM
Cc1cn([C@H]2C[C@H](OS(C)(=O)=O)[C@@H](COP(=O)(OCC(Cl)(Cl)Cl)OCC(Cl)(Cl)Cl)O2)c(=O)[nH]c1=O | RF | C8166 | - | 8 µM
O=C(CC1(O)C(=O)Nc2ccc(Br)cc21)c1ccccc1 | - | C8166 | K103N | 132 µM
Cc1cn([C@H]2C[C@H](N=[N+]=[N-])[C@@H](CO)O2)c(=O)[nH]c1=O | RF | MT-2 | - | 0.04 µM
CC(C)C1=C2[C@H]3CC[C@@H]4[C@@]5(C)CC[C@H](OC(=O)[C@H]6C[C@@H](C(=O)O)C6(C)C)C(C)(C)[C@@H]5CC[C@@]4(C)[C@]3(C)CC[C@@]2(c2nnc(-c3ccc(Cl)cc3)o2)CC1=O | 92HT599 | MT-2 | - | <0.01 µM
Cc1cn([C@H]2C[C@H](N=[N+]=[N-])[C@@H](CO)O2)c(=O)[nH]c1=O | HXB2 | MT-2 | - | 0.003 µM
Cc1ccnc2c1NC(=O)c1cccnc1N2C1CC1 | - | C8166 | K103N | 5.38 µM
CCO/N=C(\c1ccc(Br)cc1)C1CCN(C2(C)CCN(C(=O)c3c(C)cc[n+]([O-])c3C)CC2)CC1 | BaL | PBMC | - | 0.0068 µM
O=C(CC1(O)C(=O)Nc2ccc(Cl)cc21)c1ccccc1Cl | - | C8166 | K103N | 129 µM
CC(C)=CCC/C(C)=C/CN1CCc2cc(O)c(O)cc2[C@H]1Cc1ccc(O)c(O)c1 | IIIB | H9 | - | >2.5 µg/mL
CC(C)C1=C2[C@H]3CC[C@@H]4[C@@]5(C)CC[C@H](OC(=O)[C@H]6C[C@@H](C(=O)O)C6(C)C)C(C)(C)[C@@H]5CC[C@@]4(C)[C@]3(C)CC[C@@]2(c2ncc(-c3ccc(Cl)cc3)n2CCN(C)C)CC1=O | 92HT599 | MT-2 | - | <0.01 µM
CC(=O)O[C@H]1C[C@H](n2cc(C)c(=O)[nH]c2=O)O[C@@H]1CO | RF | C8166 | - | >100 µM
CC(C)=CCC/C(C)=C/C[N@@+]12CCc3cc(O)c(O)cc3[C@H]1Cc1ccc(O)c(O)c1C2 | IIIB | H9 | - | >25 µg/mL
COc1cc(Cc2cnc([NH][Sn]([CH3])([CH3])[NH]c3ncc(Cc4cc(OC)c(OC)c(OC)c4)c(N)n3)nc2N)cc(OC)c1OC | - | Jurkat cells | - | 0.003 µM
CC1c2cc(O)c(O)cc2CC[N+]1(C)C | IIIB | H9 | - | >25 µg/mL
CCOP(=O)(COc1ccc(C[C@H](NC(=O)O[C@H]2CO[C@H]3OCC[C@H]32)[C@H](O)CN(CC(C)C)S(=O)(=O)c2ccc(OC)cc2)cc1)OCC | IIIB | MT-2 | K112M K113E V128I | 0.008 µM
Cc1ccc(-c2ccc3c(c2)C=C(C(=O)Nc2ccc(C[N+](C)(C)C4CCOCC4)cc2)CCC3)cc1 | BaL | PBMC | - | 0.02 µM
CC(=O)O[C@@]12C[C@@H](C)[C@@]3(O)[C@@H](C=C(CO)C[C@]4(O)C(=O)C(C)=C[C@@H]34)[C@@H]1C2(C)C | NL4-3 | MT-4 | - | 0.175 µM
O=c1[nH]cnc2c1ncn2[C@H]1CC[C@@H](CO)O1 | HxB2-MT 65 (RT-K65R | MT-2 | RT-K65R | 4.3 µM
CC(C)n1nc(-c2ccc3oc(N)nc3c2)c2c(N)ncnc21 | 92UG031 | PBMC | - | 0.01015 µM
CC(C)=CCC/C(C)=C/C[N@+]12CCc3cc(O)c(O)cc3[C@H]1Cc1ccc(O)c(O)c1C2 | IIIB | H9 | - | >2.5 µg/mL
COc1ccccc1C(=O)CC1(O)C(=O)Nc2ccc(Br)cc21 | - | C8166 | K103N | 74.7 µM
CC(=O)O[C@H]1C[C@H](n2cc(C)c(=O)[nH]c2=O)O[C@@H]1COP(=O)(OCC(Cl)(Cl)Cl)OCC(Cl)(Cl)Cl | RF | C8166 | - | 35 µM
N#CC[C@H](C1CCCC1)n1cc(-c2ncnc3[nH]ccc23)cn1 | BaL | Macrophage | - | 0.3 µM
CC(C)=CCC/C(C)=C/C[N+]1(C/C=C(\C)CCC=C(C)C)CCc2cc(O)c(O)cc2[C@H]1C | IIIB | H9 | - | >2.5 µg/mL
Cc1ccnc2c1NC(=O)c1cccnc1N2C1CC1 | BaL | PBMC | - | 0.019 µM
Cc1cn([C@H]2C[C@H](N=[N+]=[N-])[C@@H](CO)O2)c(=O)[nH]c1=O | IIIB | MT-2 | L441P | 0.153 µM
CC(C)c1nc(CN(C)C(=O)N[C@H](C(=O)N[C@@H](Cc2ccccc2)C[C@H](O)[C@H](Cc2ccccc2)NC(=O)OCc2cncs2)C(C)C)cs1 | SF33 | PBMC | - | 0.091 µM
Cc1nnc(C(C)C)n1C1C[C@H]2CC[C@@H](C1)N2CC[C@H](NC(=O)C1CCC(F)(F)CC1)c1ccccc1 | CC1/85_NDC | PBMC | - | 0.00054 µg/mL
CCCC(=O)OCSc1ccccc1C(=O)NCCC(N)=O | 98IN017 | PBMC | - | 2.62 µM
Cc1cn([C@H]2C[C@H](N=[N+]=[N-])[C@@H](CO)O2)c(=O)[nH]c1=O | IIIB | MT-4 | - | <0.001 µg/mL
CC(C)=CCC/C(C)=C/COc1cc2cc[n+](C)c(Cc3ccc(O)c(O)c3)c2cc1OC/C=C(\C)CCC=C(C)C | IIIB | H9 | - | >2.5 µg/mL

The last 4 rows once more:

structure	strain or isolate	cells	changes	result
Cc1nnc(C(C)C)n1C1C[C@H]2CC[C@@H](C1)N2CC[C@H](NC(=O)C1CCC(F)(F)CC1)c1ccccc1	CC1/85_NDC	PBMC	-	0.00054 µg/mL
CCCC(=O)OCSc1ccccc1C(=O)NCCC(N)=O	98IN017	PBMC	-	2.62 µM
Cc1cn([C@H]2C[C@H](N=[N+]=[N-])[C@@H](CO)O2)c(=O)[nH]c1=O	IIIB	MT-4	-	<0.001 µg/mL
CC(C)=CCC/C(C)=C/COc1cc2cc[n+](C)c(Cc3ccc(O)c(O)c3)c2cc1OC/C=C(\C)CCC=C(C)C	IIIB	H9	-	>2.5 µg/mL

An empty or dashed field is not shown. ECn: concentration that inhibits the pathogen or its effect by n%.